# Share of PSTVd stem 15 variants by leaf site

Region: stem 15 of PSTVd (intermediate strain), upper and lower strand joined, each 5' to 3', the first 9 letters being the upper strand. Wild type: CUGGAGCGAUCGCUUCGG. Varied positions (N): CUGGAGCGAUNGNNUNNG.

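A pool of all variants was put on leaves of three Nicotiana benthamiana plants. Samples came from the inoculated region at 5 days, the leaf margin at 10 and upper systemic leaves at 12.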

Numbers give reads per thousand; 0 = not seen among the reads, higher = more abundant.
Each value is the mean of three plants.
"Pool" is the share in the plasmid pool used as inoculum, on the same scale.
The inoculated region was read from the minus strand, the other sites from the plus strand.

CUGGAGCGAUGGACUGGG (pool 0.889) read inoculated region 0.273; leaf margin 0.0282; systemic leaves 0. With CUGGAGCGAUAGGGUUGG (pool 1.45) the assay gave inoculated region 0.751; leaf margin 0.0235; systemic leaves 0. For CUGGAGCGAUAGUUUAAG (pool 0.873) the result was inoculated region 0.215; leaf margin 0.0616; systemic leaves 0. CUGGAGCGAUCGACUUUG (pool 0.727) read inoculated region 0.265; leaf margin 0; systemic leaves 0.568. CUGGAGCGAUCGUUUGAG (pool 1.62) read inoculated region 0.906; leaf margin 0.0510; systemic leaves 0. For CUGGAGCGAUAGGCUGUG (pool 0.970) the result was inoculated region 0.260; leaf margin 0.0244; systemic leaves 0. CUGGAGCGAUUGCAUCAG (pool 0.760) read inoculated region 0.213; leaf margin 0.0367; systemic leaves 0. CUGGAGCGAUCGGAUUGG (pool 0.905) gave inoculated region 0.313; leaf margin 0.0419; systemic leaves 0. AUGGAGCGAUAGGCUACG (pool 0.0162) gave inoculated region 0; leaf margin 0; systemic leaves 0.

CUGGAGCGAUGGAUUGCG (pool 0.792) gave inoculated region 0.310; leaf margin 0.0414; systemic leaves 0. CUGGAGCGAUCGGAUCUG (pool 0.792) read inoculated region 0.346; leaf margin 0; systemic leaves 0. CUGGAGCGAUGGGAUCCG (pool 1.10) gave inoculated region 0.286; leaf margin 0.0378; systemic leaves 0. CUGGAGCGAUCGGAUACG (pool 0.792) gave inoculated region 0.380; leaf margin 0.0503; systemic leaves 0. CUGGAGCGAUCGGGUCUG (pool 0.760) gave inoculated region 0.241; leaf margin 0.0488; systemic leaves 0. For CUGGAGCGGUGGCAUGGG (pool 0.0162) the result was inoculated region 0; leaf margin 0; systemic leaves 0. For CUGGAGCGAUAGAAUCGG (pool 1.02) the result was inoculated region 0.273; leaf margin 0.0191; systemic leaves 0. CUGGAGAGAUUGGGUCUG (pool 0.0162) gave inoculated region 0; leaf margin 0; systemic leaves 0. CUGGAGCGAUGGCUUUCG (pool 1.05) read inoculated region 0.371; leaf margin 0.0397; systemic leaves 0.

With CUGGAGCGAUGGAUUUGG (pool 0.921) the assay gave inoculated region 0.282; leaf margin 0.0394; systemic leaves 0. CUGGAGCGAUAGGCUUGG (pool 0.743) gave inoculated region 0.303; leaf margin 0.0456; systemic leaves 0. CUGGAGCGAUUGUUUCAG (pool 1.15) gave inoculated region 1.56; leaf margin 0.710; systemic leaves 0.463. With CUGGAGCGAUCGAGUAGG (pool 1.07) the assay gave inoculated region 0.308; leaf margin 0.0244; systemic leaves 0. CUGGAGCGAUAGGAUCGG (pool 0.663) read inoculated region 0.318; leaf margin 0.0372; systemic leaves 0. CUGGAGCGAUCGGCUACG (pool 1.31) gave inoculated region 0.474; leaf margin 0.0367; systemic leaves 0.00664. CUGGAGCGAUGGAGUUCG (pool 0.970) gave inoculated region 0.291; leaf margin 0.0604; systemic leaves 0. For CUGGAGCGAUCGCAUCCG (pool 1.37) the result was inoculated region 0.271; leaf margin 0.0388; systemic leaves 0.0132. CUGGAGCGAUGGCCUUUG (pool 0.889) gave inoculated region 0.282; leaf margin 0.0191; systemic leaves 0.

CUGGAGCGAUAGGCUGCG (pool 1.08) gave inoculated region 0.381; leaf margin 0.0372; systemic leaves 0. For CUGGAGCGAUAGCUUGGG (pool 0.727) the result was inoculated region 0.315; leaf margin 0.0541; systemic leaves 0. With CGGGAGCGAUGGCAUGAG (pool 0.0162) the assay gave inoculated region 0; leaf margin 0; systemic leaves 0. With CUGGAGCGAUGGAGUCUG (pool 0.873) the assay gave inoculated region 0.326; leaf margin 0.0350; systemic leaves 0. With CUGGAGCGAUAGGCUACG (pool 1.10) the assay gave inoculated region 0.363; leaf margin 0.0450; systemic leaves 0. CUGGAGCGAUUGACUUAG (pool 0.986) read inoculated region 2.68; leaf margin 1.17; systemic leaves 1.22. CUGGAGCGAUCGUAUCCG (pool 0.598) read inoculated region 0.252; leaf margin 0.0535; systemic leaves 0.

The opening 2 entries, copied out:

sequence,pool,inoculated region,leaf margin,systemic leaves
CUGGAGCGAUGGACUGGG,0.889,0.273,0.0282,0
CUGGAGCGAUAGGGUUGG,1.45,0.751,0.0235,0

With 36,693-63,082 reads a sample, very low values are single reads.
Wild type was 10.2 per thousand in the pool and the most common sequence in every sample (inoculated region 285, 367, 312; leaf margin 785, 865, 782; systemic leaves 854, 898, 915).
The authors trace changes outside the varied positions to PCR and sequencing errors or to mutation in the plant; presence does not show that a variant is infectious alone.

The measurements come from Wu et al. 2024 (doi:10.1371/journal.ppat.1012142).